Pooled drug test results. Numbers come from NIAID ChemDB, via PubChem.

Common to all: tests in culture; organism: Hepatitis B virus; measure: EC50

ECn: concentration that inhibits the pathogen or its effect by n%. An empty or dashed field is not shown. Lines come from different laboratories, so protocols vary. a–b is a range or a potency band.

Cc1ccn(-c2ccc(-n3c(=O)c4c(n5ncc(CC(C)C)c35)CN(C(=O)c3ccc(Br)c(C(F)(F)F)c3)[C@@H](C)C4)cc2)n1 ; method: luminescence ; cell line: HepG2.117 ; result: 0.5–5 µM
C[C@@H](NC(=O)c1c2n(c(=O)n1-c1ccc(OC3CC3)cc1)CCN(C(=O)c1ccc(Br)c(Cl)c1)C2)c1ccc(C#N)cc1F ; method: PCR ; cell line: HepG2.117 ; result: 0.5–5 µM
C[C@H]1Cc2c(n3ncc(CC4CC4)c3n(-c3ccc(-c4nncn4C)cc3)c2=O)CN1C(=O)c1ccc(Br)c(C(F)(F)F)c1 ; method: luminescence ; cell line: HepG2.117 ; result: 0.05–0.5 µM
COc1ccc(CNC(=O)c2c3n(c(=O)n2-c2ccc(OC4CC4)cc2)CCN(C(=O)c2ccc(Br)c(Cl)c2)C3)c(F)c1 ; method: PCR ; cell line: HepG2.117 ; result: 0.1–0.5 µM
Cn1nc2cc(NC(=O)C(=O)C3CC3)ccc2c1C(=O)Nc1ccc(F)c(Cl)c1 ; method: PCR ; cell line: HepAD38 ; result: >1000 µM
CNC(=O)c1ccc(-n2c(=O)c3c(n4ncc(CC5CC5)c24)CN(C(=O)c2ccc(Br)c(C(F)(F)F)c2)[C@@H](C)C3)nc1 ; method: luminescence ; cell line: HepG2.117 ; result: ≤0.05 µM
O=C(O)c1cc2c(n(C3CC3)c1=O)-c1cc(Cl)c(OCC(F)F)cc1S(=O)(=O)C2 ; method: antigen / visual reading / absorbance ; cell line: Primary human hepatocytes ; result: 0.1–0.5 µM
Cc1nc(-c2ccc(-n3c(=O)c4c(n5ncc(Cc6ccccc6)c35)CN(C(=O)c3ccc(Br)c(Cl)c3)CC4)cc2)n[nH]1 ; method: luminescence ; cell line: HepG2.117 ; result: ≤0.05 µM
Cn1nc2cc(NS(=O)(=O)c3cnn(C4CCNC4)c3)ccc2c1C(=O)Nc1ccc(F)c(Cl)c1 ; method: PCR ; cell line: HepAD38 ; result: <100 µM
N#Cc1cc(C(=O)N2CCn3c(c(C(=O)NCc4ccccc4-c4ncccn4)n(-c4ccc(-n5cccn5)cc4)c3=O)C2)ccc1Br ; method: PCR ; cell line: HepG2.117 ; result: 0.1–0.5 µM
COc1cc2c(cc1Cl)-c1c(cc(C(=O)O)c(=O)n1C1CC1)CS2(=O)=O ; method: antigen / visual reading / absorbance ; cell line: Primary human hepatocytes ; result: 0.1–0.5 µM
Cc1nnc(-c2ccc(-n3c(=O)c4c(n5ncc(Cc6ccccc6)c35)CN(C(=O)c3ccc(Br)c(C(F)(F)F)c3)CC4)cc2)n1C ; method: luminescence ; cell line: HepG2.117 ; result: ≤0.05 µM
COCCCOc1cc2c(cc1Cl)-c1c(cc(C(=O)O)c(=O)n1C1CCCC1)CS2 ; method: antigen / visual reading / absorbance ; cell line: Primary human hepatocytes ; result: >0.5 µM
Cn1nc2cc(NS(=O)(=O)c3cnn(-c4ncccc4N)c3)ccc2c1C(=O)Nc1ccc(F)c(Cl)c1 ; method: PCR ; cell line: HepAD38 ; result: <100 µM
C[C@H]1Cc2c(n3ncc(CC4CCC4)c3n(-c3ccc(-c4n[nH]nc4N)cc3)c2=O)CN1C(=O)c1ccc(Br)c(C(F)(F)F)c1 ; method: luminescence ; cell line: HepG2.117 ; result: 0.05–0.5 µM
N#CCCCOc1cc2c(cc1Cl)-c1c(cc(C(=O)O)c(=O)n1C1CC1)CS2(=O)=O ; method: antigen / visual reading / absorbance ; cell line: Primary human hepatocytes ; result: 0.1–0.5 µM
CNc1n[nH]c2cc(-n3c(=O)c4c(n5ncc(Cc6ccccc6)c35)CN(C(=O)c3ccc(Br)c(C(F)(F)F)c3)CC4)ccc12 ; method: luminescence ; cell line: HepG2.117 ; result: ≤0.05 µM
O=C(NCc1ccccc1)c1c2n(c(=O)n1-c1ccc(N3CC(F)(F)C3)cc1)CCN(C(=O)c1ccc(Br)c(Cl)c1)C2 ; method: PCR ; cell line: HepG2.117 ; result: 0.1–0.5 µM
CCc1cc2c(cc1OCCCOC)S(=O)(=O)Cc1cc(C(=O)O)c(=O)n(C3CC3)c1-2 ; method: antigen / visual reading / absorbance ; cell line: Primary human hepatocytes ; result: 0.05–0.1 µM
N#Cc1cccc(-n2c(C(=O)NCc3ccccc3)c3n(c2=O)CCN(C(=O)c2ccc(Br)c(Cl)c2)C3)c1 ; method: PCR ; cell line: HepG2.117 ; result: 0.5–5 µM
COCCCOc1cc2c(cc1-c1ccn(C)n1)-c1c(cc(C(=O)O)c(=O)n1C1CC1)CS2(=O)=O ; method: antigen / visual reading / absorbance ; cell line: Primary human hepatocytes ; result: 0.1–0.5 µM
Cn1nc2cc(NS(=O)(=O)c3cnn(C4CCN(C(=O)OC(C)(C)C)C4)c3)ccc2c1C(=O)Nc1ccc(F)c(Cl)c1 ; method: PCR ; cell line: HepAD38 ; result: 100–1000 µM
COc1ccc(CNC(=O)c2c3n(c(=O)n2Cc2ccccc2)CCN(C(=O)c2ccc(Br)c(Cl)c2)C3)cc1 ; method: PCR ; cell line: HepG2.2.15 ; result: >5 µM
Cn1ccnc1S(=O)(=O)Nc1ccc2c(C(=O)Nc3ccc(F)c(Cl)c3)n(C)nc2c1 ; method: PCR ; cell line: HepAD38 ; result: >1000 µM
COCCCOc1cc2c(cc1NCCC(=O)O)-c1c(cc(C(=O)O)c(=O)n1C1CC1)C(C)S2(=O)=O ; method: antigen / visual reading / absorbance ; cell line: Primary human hepatocytes ; result: >0.5 µM
C[C@@H](NC(=O)c1c2n(c(=O)n1-c1ccc(OC3CC3)cc1)CCN(C(=O)c1ccc(Br)c(Cl)c1)C2)c1ccc(OC2COC2)cc1F ; method: PCR ; cell line: HepG2.117 ; result: 0.1–0.5 µM
CN(C)CCn1cc(S(=O)(=O)Nc2ccc3c(C(=O)Nc4ccc(F)c(Cl)c4)n(C)nc3c2)cn1 ; method: PCR ; cell line: HepAD38 ; result: 100–1000 µM
O=C(NCc1ccccc1)c1c2n(c(=O)n1-c1ccc(F)cc1)CCN(C(=O)c1ccc(Br)c(Cl)c1)C2 ; method: PCR ; cell line: HepG2.117 ; result: 0.5–5 µM
C=C1[C@H](CO)[C@@H](O)C[C@@H]1n1cnc2c(=O)[nH]c(N)nc21 ; method: fluorescence ; strain: Genotype D ; cell line: HepG2-NTCP ; result: 0.00125 µM

Again, the opening 4 rows:

compound,method,strain,cell line,result
Cc1ccn(-c2ccc(-n3c(=O)c4c(n5ncc(CC(C)C)c35)CN(C(=O)c3ccc(Br)c(C(F)(F)F)c3)[C@@H](C)C4)cc2)n1,luminescence,,HepG2.117,0.5–5 µM
C[C@@H](NC(=O)c1c2n(c(=O)n1-c1ccc(OC3CC3)cc1)CCN(C(=O)c1ccc(Br)c(Cl)c1)C2)c1ccc(C#N)cc1F,PCR,,HepG2.117,0.5–5 µM
C[C@H]1Cc2c(n3ncc(CC4CC4)c3n(-c3ccc(-c4nncn4C)cc3)c2=O)CN1C(=O)c1ccc(Br)c(C(F)(F)F)c1,luminescence,,HepG2.117,0.05–0.5 µM
COc1ccc(CNC(=O)c2c3n(c(=O)n2-c2ccc(OC4CC4)cc2)CCN(C(=O)c2ccc(Br)c(Cl)c2)C3)c(F)c1,PCR,,HepG2.117,0.1–0.5 µM